ChEMBL document CHEMBL3433997, “St. Jude Leishmania screening dataset” (2016)
Only a part is listed here, and it is no random draw.

Chains of the proteins cited; added tags and fusions are not shown. Lines headed by an entry give the natural chain unless they say otherwise; changes in a name come on top.
UniProt P11166: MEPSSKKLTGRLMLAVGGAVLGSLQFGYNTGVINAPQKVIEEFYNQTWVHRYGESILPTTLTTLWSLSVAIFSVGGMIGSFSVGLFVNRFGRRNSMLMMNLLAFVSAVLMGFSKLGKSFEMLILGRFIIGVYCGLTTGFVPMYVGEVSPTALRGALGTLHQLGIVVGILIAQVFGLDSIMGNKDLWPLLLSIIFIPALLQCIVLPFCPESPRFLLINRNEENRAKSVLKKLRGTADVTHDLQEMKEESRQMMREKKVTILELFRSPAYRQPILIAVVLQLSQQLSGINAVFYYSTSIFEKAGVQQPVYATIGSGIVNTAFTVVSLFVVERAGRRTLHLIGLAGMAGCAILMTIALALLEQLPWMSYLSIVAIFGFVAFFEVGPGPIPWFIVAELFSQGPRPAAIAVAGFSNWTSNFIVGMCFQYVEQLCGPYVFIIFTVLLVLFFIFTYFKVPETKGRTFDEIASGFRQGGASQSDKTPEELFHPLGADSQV

Experiments:
Assay type in all cases: functional
[1] = biological target: Solute carrier family 2, facilitated glucose transporter member 1 (Homo sapiens) (UniProt P11166); assay: ST_JUDE_LEISH: Cytotoxicity at 2uM final concentration against transgenic Leishmania Mexicana promastigotes LmGLUT1 that are glucose transport deficient and complemented with the human glucose transporter GLUT1. Activity is measured by DNA content using SYBR green in vitro
[2] = biological target: Hexose transporter 1 (Plasmodium falciparum) (UniProt O97467); assay: ST_JUDE_LEISH: Cytotoxicity at 2uM final concentration against transgenic Leishmania Mexicana promastigotes LmPfHT that are glucose transport deficient and complemented with the Plasmodium falciparum hexose transporter. Activity is measured by DNA content using SYBR green in vitro
[3] = biological target: Glucose transporter (Leishmania mexicana) (UniProt O61059); assay: ST_JUDE_LEISH: Cytotoxicity at 2uM final concentration against transgenic Leishmania Mexicana promastigotes LmGT2 that are glucose transport deficient and complemented with the L. Mexicana glucose transporter 2. Activity is measured by DNA content using SYBR green in vitro

Compound: COc1cc(C(=O)NC(SC2=NCCS2)C(Cl)(Cl)Cl)cc(OC)c1OC (stereo not drawn)
- inhibition [1]: -0.59%
- inhibition [2]: 1.6%
- inhibition [3]: -0.53%
